Data as given in PubChem BioAssay AID1259414 (Drosophila RNAi Screening Center, 2018).
The screen tested about 24,000 reagents; below is a random part of those with a known target gene and a result. Over the whole deposit, about 1,210 (5%) are marked active. 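Inactive calls also include excluded dsRNAs with several or no targets, genes unexpressed in JW18, and well A1, regardless of score.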 A number with no mark means an inactive call. A plus sign joins genes that one reagent is predicted to hit.

Purpose: 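Fly genes that alter Wolbachia amount inside host cells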 (primary screen)
Cells: Drosophila JW18 cells infected with Wolbachia
Reagent: long dsRNA against Drosophila genes, 0.25 µg dsRNA per well of a 384-well plate
Time to read-out: 5 days
Challenge: cells persistently infected with Wolbachia before knock-down; no added drug
Read-out: 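Imaged fluorescence in situ signal for Wolbachia 23S rRNA per DAPI-counted host cell, given as a robust z-score within each plate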
Reading the numbers: Wolbachia per cell robust z: higher = more Wolbachia per host cell than the plate typical
Hit rule: 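Active if absolute robust z reaches 1.5 in two or more of three replicates, leaving out multi- or no-target dsRNAs, genes unexpressed in JW18 and A1 wells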

no.	target	PubChem SID	Wolbachia per cell robust z, rep 1	Wolbachia per cell robust z, rep 2	Wolbachia per cell robust z, rep 3
1	CG42784	SID104182326	0.828	-0.485	0.207
2	CG42784	SID104201792	-0.326	-0.674	-0.691
3	CG42784	SID104202163	-0.418	-0.962	-1.22
4	CG42784	SID104202357	0.586	1.68	0.271
5	CG42784	SID104204359	-0.59	-1.83	-1.42
6	CG42784	SID104208275	1.11	-0.0623	0.815
7	AGO3	SID104201152	-1.49	-0.937	-0.696
8	Glyp	SID104180544	0.281	-1.25	-0.801
9	png	SID104198374	0.219	-1.47	-1.05
10	png	SID104205356	0.34	-0.46	0.215
11	CG14961	SID104188212	-1.07	-0.0334	-0.258
12	nclb	SID104186801	0.138	-3.97	1.04
13	CG3108	SID104198072	-2.2	-1.48	-3.11
14	Mp20	SID104187266	-0.165	0.194	-2.13
15	Mp20	SID104208337	0.0219	0.799	-1.77
16	CG12769	SID104203602	-0.356	-0.12	0.367
17	PI31	SID104187098	0.356	0.119	0.805
18	CG15544	SID104194874	0.317	-0.421	-0.111
19	CG15544	SID104204230	0.582	0.322	-10.6
20	CG3842	SID104198118	1.07	-0.428	-2.2
21	CG3842	SID104205128	0.0179	-0.103	0.202
22	Mst84Dd	SID104192392	0.4	0.564	-0.867
23	Mst84Dd	SID104204140	-5.36	-13.4	-1.08
24	Sclp	SID104199643	1.02	-0.169	-1.61
25	CG15020	SID104188266	-2.29	-0.467	-0.545
26	CG14400	SID104182176	0.235	-0.252	-0.661
27	CG16800	SID104182310	0.95	-0.166	0.503
28	CG16800	SID104206781	-4.55	-0.0651	0.473
29	CG8249	SID104186917	0.897	0.709	0.615
30	slx1	SID104192082	0.95	0.674	0.864
31	CG13299	SID104189765	0.424	1.17	-2.24

Limited to “Wolbachia per cell robust z, rep 1”, for 11 of the entries above:
CG14961 [SID104188212]	-1.07
nclb [SID104186801]	0.138
CG3108 [SID104198072]	-2.2
Mp20 [SID104187266]	-0.165
Mp20 [SID104208337]	0.0219
CG12769 [SID104203602]	-0.356
PI31 [SID104187098]	0.356
CG15544 [SID104194874]	0.317
CG15544 [SID104204230]	0.582
CG3842 [SID104198118]	1.07
CG3842 [SID104205128]	0.0179

The results go on:
no.	target	PubChem SID	Wolbachia per cell robust z, rep 1	Wolbachia per cell robust z, rep 2	Wolbachia per cell robust z, rep 3
32	CG17687	SID104190071	-0.114	0.828	-0.734
33	CG17687	SID104204381	0.495	-0.171	0.246
34	CG6675	SID104183527	0.0351	0.00155	-0.65
35	RpS15	SID104186943	2.18	3.19	-0.0779
36	RpS15	SID104202747	2.81 (active)	8.12	6.93
37	PhKgamma	SID104200060	0.199	0.758	-0.595
38	PhKgamma	SID104205770	0.0466	-0.459	-0.582
39	CG13226	SID104186138	-0.458	-0.357	-2.96
40	CG12129	SID104185897	-1.82	-0.968	-0.854
41	RpS20	SID104196628	0.301	1.07	0.988
42	BigH1	SID104195283	-0.342	0.61	-3.61
43	BigH1	SID104206361	-1.97	-0.947	-0.17
44	zpg	SID104189494	-0.713	-0.587	-0.207
45	zpg	SID104204802	1.17	0.367	0.968
46	CG4793	SID104181758	1.89	-0.197	1.49
47	Stim	SID104199950	-0.708	-1.23	2.18
48	CG12093	SID104188044	-0.531	-2.32	-0.718
49	maf-S	SID104187140	0.581	0.596	-1.44
50	CG13192	SID104186109	0.756	-2.86	0.361
51	Gyc88E	SID104195339	0.347	-1.13	-1.99
52	CG42649	SID104218892	-0.763	-0.962	-2.78
53	trpl	SID104186520	-0.543	-0.238	-1.52
54	trpl	SID104186521	-1.74	0.892	0.447
55	trpl	SID104204031	0.415	-0.284	-0.775
56	SdhCL	SID104195870	-4.8	0.543	-1.01
57	CG15362	SID104180184	-1.16	-0.163	-1.68
58	CG15034	SID104197758	-6.83	0.136	-0.368
59	CG33342	SID104193454	1.13	0.147	0.915
60	CG13217	SID104186131	-2.29	-2.5	1.05
61	CG11300	SID104183896	-0.0922	-0.589	0.104
62	Hf + OS9	SID104183184	-0.0476	0.262	-0.269
63	Tnpo	SID104191101	1.42 (active)	3	1.73
64	Tnpo	SID104203650	1.14 (active)	2.29	4.39
65	Lamtor5	SID104198283	-1.48 (active)	-3.38	-2.14
66	aay	SID104191112	-5.76 (active)	0.756	-4.45
67	CG4375	SID104180445	-3.44	-2.03	-0.00656
68	CG4375	SID104203723	-0.165	0.533	-11.1
